According to ChEMBL document CHEMBL3822423 (J Med Chem, 2016):
In brackets after ≈: the same amount, converted by molar mass.

Legend:
Staphylococcus aureus [1] = experiment: Potency index, ratio of chloromycin MIC to compound MIC for methicillin-resistant Staphylococcus aureus N315
Staphylococcus aureus [2] = experiment: Potency index, ratio of norfloxacin MIC to compound MIC for methicillin-resistant Staphylococcus aureus N315
Staphylococcus aureus [3] = experiment: Antibacterial activity against methicillin/quinolone-resistant Staphylococcus aureus ATCC 700699 measured after 6 passages
Staphylococcus aureus [4] = experiment: Antibacterial activity against methicillin resistant Staphylococcus aureus N315 measured after 6 passages
Staphylococcus aureus [5] = experiment: Antibacterial activity against methicillin resistant Staphylococcus aureus N315 at 0.5 ug/ml incubated for 12 hrs measured after 12 passages
Staphylococcus aureus [6] = experiment: Ratio of MIC measured after 6 passages to MIC measured after 1 passage for methicillin/quinolone-resistant Staphylococcus aureus ATCC 700699
Staphylococcus aureus [7] = experiment: Antibacterial activity against methicillin/quinolone-resistant Staphylococcus aureus ATCC 700699 at 0.5 ug/ml incubated for 12 hrs measured after 7 passages

Question: How did the Ratio (Staphylococcus aureus [1]) turn out when CCn1cc(-c2csc(N)n2)c(=O)c2cc(N3CCCC3)c(Cl)cc21 was run?
Answer: 27

Question: And the Ratio (Staphylococcus aureus [2])?
Answer: 13

Question: And the MIC (Staphylococcus aureus [3])?
Answer: 512 µg/mL (≈ 1370 µM)

Question: And the MIC (Staphylococcus aureus [4])?
Answer: 267 µg/mL (≈ 711 µM)

Question: And the MIC (Staphylococcus aureus [5])?
Answer: 0.5 µg/mL (≈ 1.33 µM)

Question: And the Ratio (Staphylococcus aureus [6])?
Answer: 32

Question: What about the MIC (Staphylococcus aureus [7]) of the same compound?
Answer: 2 µg/mL (≈ 5.33 µM)
